Results of unrelated studies side by side (data: NIAID ChemDB).

All rows: growth or infection tests; organism: Mycobacterium avium complex; measure: MIC

Lines come from different laboratories, so protocols vary. a–b is a range or a potency band.

{"compound": "CC1(C)S[C@@H]2[C@H](NC(=O)C(C(=O)O)c3ccccc3)C(=O)N2[C@H]1C(=O)O", "strain": "CIPT 140310005", "value": "25 µg/mL"}
{"compound": "O=C1c2cc(Br)ccc2-n2c1nc1ccccc1c2=O", "strain": "19075", "value": "0.25 µg/mL"}
{"compound": "COCc1c(CNc2cc(OC)ccc2OC)cnc2nc(N)nc(N)c12", "strain": "NJ3404", "value": ">13 µg/mL"}
{"compound": "Nc1ccc(S(=O)(=O)c2ccc(N)cc2)cc1", "strain": "DW21", "value": "64 µg/mL"}
{"compound": "Cc1cccc(CSc2nc(=O)[nH]c3nc[nH]c23)c1", "strain": "NJ211", "value": ">12.8 µg/mL"}
{"compound": "CC(C)(C)OC(=O)N1CCN(c2cc3nc4n(c(=O)c3cc2F)-c2ccc(I)cc2C4=O)CC1", "strain": "19075", "value": "25 µg/mL"}
{"compound": "NNC(=O)c1ccncc1", "strain": "13025", "value": "0.32–0.4 µg/mL"}
{"compound": "CC(C)NC(=O)OCCN=c1ssc2ccccc12", "strain": "AN2", "value": "4 µg/mL"}
{"compound": "CC[C@H]1OC(=O)[C@H](C)[C@@H](OC2C[C@@](C)(OC)[C@@H](OC(C)=O)[C@H](C)O2)[C@H](C)[C@@H](O[C@@H]2O[C@H](C)C[C@H](N(C)C)[C@H]2O)C(C)(O)C[C@@H](C)/C(=N\\OCCCOc2ccccc2)[C@H](C)[C@@H](O)[C@]1(C)O", "strain": "20092 (clarithromycin-resistant)", "value": "0.78 µg/mL"}
{"compound": "CC1(C)N=C(N)N=C(N)N1OCCCOc1cc(Cl)c(Cl)cc1Cl", "strain": "1408", "value": "0.5 µg/mL"}
{"compound": "CO[C@H]1/C=C/O[C@@]2(C)Oc3c(C)c(O)c4c(=O)c(c5oc6cc(N7CCN(CC(C)C)CC7)cc(=O)c6nc5c4c3=C2O)NC(=O)/C(C)=C\\C=C\\[C@H](C)[C@H](O)[C@@H](C)[C@@H](O)[C@@H](C)[C@H](OC(C)=O)[C@@H]1C", "strain": "N-962 (HIV+)", "value": "0.05 µg/mL"}
{"compound": "CC[C@H]1OC(=O)[C@H](C)[C@@H](O[C@H]2C[C@@](C)(OC)[C@@H](O)[C@H](C)O2)[C@H](C)[C@@H](O[C@@H]2O[C@H](C)C[C@H](N(C)C)[C@H]2O)[C@](C)(OC)C[C@@H](C)C(=O)[C@H](C)[C@@H](O)[C@]1(C)O", "strain": "ATCC 15769", "value": "2 µg/mL"}
{"compound": "CO[C@H]1/C=C/O[C@@]2(C)Oc3c(C)c(O)c4c(O)c(c5c(c4c3C2=O)NC2(CCN(CC(C)C)CC2)N=5)=NC(=O)/C(C)=C\\C=C\\[C@H](C)[C@H](O)[C@@H](C)[C@@H](O)[C@@H](C)[C@H](OC(C)=O)[C@@H]1C", "strain": "K", "value": "0.5 µg/mL"}
{"compound": "COc1ccc(OC)c(NCc2cnc3nc(N)nc(N)c3c2C)c1", "strain": "NJ3404", "value": "≤0.13 µg/mL"}
{"compound": "COc1ccc(CSc2ncccn2)cc1", "strain": "NJ211", "value": ">12.8 µg/mL"}
{"compound": "CCCCNC(=O)OCCN=c1ssc2ccccc12", "strain": "AN3", "value": "2 µg/mL"}
{"compound": "CCNC(=O)[C@@H](NC(=O)Cc1ccccc1)[C@@H]1N[C@@H](C(=O)NCCNC(=O)[C@@H]2N[C@@H]([C@H](NC(=O)Cc3ccccc3)C(=O)NCC)SC2(C)C)C(C)(C)S1", "strain": "CIPT 140310012", "value": "25 µg/mL"}
{"compound": "OCCN=c1ssc2ccccc12", "strain": "ATCC 15769", "value": "8 µg/mL"}
{"compound": "NNC(=O)c1ccncc1", "strain": "N-945 (HIV+)", "value": "1 µg/mL"}
{"compound": "C[C@@H]1CN(c2c(F)c(N)c3c(=O)c(C(=O)O)cn(C4CC4)c3c2F)C[C@H](C)N1", "strain": "Isolate 90-0827", "value": "0.5 µg/mL"}
{"compound": "CC[C@H]1OC(=O)[C@H](C)[C@@H](O[C@H]2C[C@@](C)(OC)[C@@H](OC(C)=O)[C@H](C)O2)[C@H](C)[C@@H](O[C@@H]2O[C@H](C)C[C@H](N(C)C)[C@H]2O)C(C)(O)C[C@@H](C)/C(=N\\OCCCOc2ccccc2)[C@H](C)[C@@H](O)[C@]1(C)O", "strain": "20096 (clarithromycin-resistant)", "value": "0.78 µg/mL"}
{"compound": "CN[C@@H]1[C@H](O[C@H]2[C@H](O[C@H]3[C@H](O)[C@@H](O)[C@H](N=C(N)N)[C@@H](O)[C@@H]3N=C(N)N)O[C@@H](C)[C@]2(O)C=O)O[C@@H](CO)[C@H](O)[C@H]1O", "strain": "N-238 (HIV-)", "value": "16 µg/mL"}
{"compound": "COc1cc(NCc2cnc3nc(N)nc(N)c3c2C)cc(OC)c1", "strain": "NJ3404", "value": "≤0.13 µg/mL"}
{"compound": "CC1(C)S[C@@H]2[C@H](NC(=O)[C@H](C(=O)[O-])c3ccsc3)C(=O)N2[C@H]1C(=O)[O-].[Na+].[Na+]", "strain": "CIPT 140310002", "value": "50 µg/mL"}
{"compound": "CC(C)NC(=O)OCCn1sc2ccccc2c1=S", "strain": "AN3", "value": "2 µg/mL"}
{"compound": "COc1ccc(Sc2ncnc3nc[nH]c23)cc1", "strain": "NJ211", "value": ">12.8 µg/mL"}
{"compound": "Cc1onc(-c2ccccc2Cl)c1C(=O)N[C@@H]1C(=O)N2[C@@H]1SC(C)(C)[C@@H]2C(=O)O", "strain": "CIPT 140310006", "value": "35 µg/mL"}
{"compound": "Cc1c(CNc2cnc3ccccc3c2)cnc2nc(N)nc(N)c12", "strain": "NJ3404", "value": "≤0.13 µg/mL"}
{"compound": "O=C1c2cc(Cl)ccc2-n2c1nc1ccncc1c2=O", "strain": "101", "value": "<0.2 µg/mL"}
{"compound": "CC[C@H]1OC(=O)[C@H](C)[C@@H](OC(=O)CCCCCc2ccccc2)[C@H](C)[C@@H](O[C@@H]2O[C@H](C)C[C@H](N(C)C)[C@H]2O)C(C)(O)C[C@@H](C)/C(=N\\OCCCOc2ccccc2)[C@H](C)[C@@H](O)[C@]1(C)O", "strain": "20092 (clarithromycin-resistant)", "value": "25 µg/mL"}
{"compound": "CCCCCCCCc1ccc2nc3n(c(=O)c2c1)-c1ccccc1C3=O", "strain": "19075", "value": "≤0.2 µg/mL"}
{"compound": "COc1ccc(/C(C)=N/NC(N)=S)cc1", "strain": "116", "value": "16 µg/mL"}
{"compound": "COc1ccc(CSc2ncnc3nc[nH]c23)cc1", "strain": "NJ211", "value": ">12.8 µg/mL"}
{"compound": "Cc1ccc2c(c1)C(=O)c1nc3ccccc3c(=O)n1-2", "strain": "19075", "value": "5 µg/mL"}
{"compound": "Cc1cccc(Sc2ncccn2)c1", "strain": "NJ211", "value": ">12.8 µg/mL"}
{"compound": "CCCNC(=O)OCCn1sc2ccccc2c1=S", "strain": "AN3", "value": "4 µg/mL"}
{"compound": "CCCCCCCCCCCCO/N=C1\\[C@H](C)CC(C)(O)[C@H](O[C@@H]2O[C@H](C)C[C@H](N(C)C)[C@H]2O)[C@@H](C)[C@H](O[C@H]2C[C@@](C)(OC)[C@@H](OC(C)=O)[C@H](C)O2)[C@@H](C)C(=O)O[C@H](CC)[C@@](C)(O)[C@H](O)[C@H]1C", "strain": "20039 (clarithromycin-susceptible)", "value": "3.13 µg/mL"}
{"compound": "CC(C)N=C(N)/N=C(\\N)NOCCCOc1cc(Cl)c(Cl)cc1Cl", "strain": "9141", "value": "32 µg/mL"}
{"compound": "COc1ccc(NCc2cnc3nc(N)nc(N)c3c2C)cc1OC", "strain": "NJ3404", "value": "≤0.13 µg/mL"}
{"compound": "CC[C@H]1OC(=O)[C@H](C)[C@@H](O[C@H]2C[C@@](C)(OC)[C@@H](O)[C@H](C)O2)[C@H](C)[C@@H](O[C@@H]2O[C@H](C)C[C@H](N(C)C)[C@H]2O)[C@](C)(OC)C[C@@H](C)C(=O)[C@H](C)[C@@H](O)[C@]1(C)O", "strain": "N-961 (HIV+)", "value": "4 µg/mL"}
{"compound": "CCCCCCC(C)c1ccc2c(c1)C(=O)c1nc3ccncc3c(=O)n1-2", "strain": "19075", "value": "0.06 µg/mL"}

The first 5 rows once more:

compound	strain	value
CC1(C)S[C@@H]2[C@H](NC(=O)C(C(=O)O)c3ccccc3)C(=O)N2[C@H]1C(=O)O	CIPT 140310005	25 µg/mL
O=C1c2cc(Br)ccc2-n2c1nc1ccccc1c2=O	19075	0.25 µg/mL
COCc1c(CNc2cc(OC)ccc2OC)cnc2nc(N)nc(N)c12	NJ3404	>13 µg/mL
Nc1ccc(S(=O)(=O)c2ccc(N)cc2)cc1	DW21	64 µg/mL
Cc1cccc(CSc2nc(=O)[nH]c3nc[nH]c23)c1	NJ211	>12.8 µg/mL